Compound potency records, mixed from different reports. Data source: NIAID ChemDB in PubChem.

Shared fields: tests in culture; species: Mycobacterium tuberculosis

Neighbouring rows are from separate reports. ECn is the concentration giving n% inhibition of infection, replication or growth. An empty or dashed field is not shown. Percent inhibition refers to the dose given; in toxicity tests it is the harm to the cells. MIC50, MIC90 and the like: level of inhibition, or share of isolates inhibited. MIC bound comes from a single tested concentration.

SMILES | tested at | read-out | method | strain or isolate | changes | value
COc1ccc(C2C(C(=O)Nc3ccccc3Cl)=C(C)NC(C)=C2C(=O)Nc2ccccc2Cl)cc1 | 2.5 µg/mL | inhibition |  | H37Rv |  | 30%
O=C1CC(c2ccccc2)Oc2ccc(Br)cc21 |  | EC50 |  | H37Rv |  | >12.5 µg/mL
CO[C@H]1/C=C/O[C@@]2(C)Oc3c(C)c(O)c4c(O)c(c(/C=N/N5CCN(C)CC5)c(O)c4c3C2=O)NC(=O)/C(C)=C\C=C\[C@H](C)[C@H](O)[C@@H](C)[C@@H](O)[C@@H](C)[C@H](OC(C)=O)[C@@H]1C |  | MIC80 | broth dilution |  | Bedaquiline-resistant A63P | 0.04 µM
NC[C@@H]1O[C@H](O[C@H]2[C@@H](O)[C@H](O[C@@H]3[C@@H](O)[C@H](N)C[C@H](N)[C@H]3O[C@H]3O[C@H](CO)[C@@H](O)[C@H](O)[C@H]3N)O[C@@H]2CO)[C@H](N)[C@@H](O)[C@@H]1O |  | MIC |  | MTB24 (S) |  | 1.5 µg/mL
Cc1cc(=O)c2c(ccc3[nH]c(-c4ccco4)nc32)[nH]1 | 12.5 µg/mL | inhibition | BACTEC | H37Rv |  | -4%
CC1SC2(CCCCC2)N(NC(=O)Cc2csc3nc(-c4ccc(Cl)cc4)cn23)C1=O | 6.25 µg/mL | inhibition |  | H37Rv |  | 91%
N/C(COc1cccc(Cl)c1)=N/NC(=O)c1ccncc1 |  | MIC90 |  | 16 isolates |  | 12.5 µg/mL
Cc1ccc2c(c1C)-c1c(ccc(C)c1C)C(=O)C2=O |  | MIC | resazurin | H37Rv |  | 3.13 µg/mL
Clc1ccc(-n2ncc(C(c3ccccc3)n3ccnc3)c2-c2ccccc2)cc1 |  | MIC90 |  | ATCC 35837 (ethambutol-resistant) |  | ≥100 µM
Cc1oc(-c2ccccc2F)nc1C(N)=O | 12.5 µg/mL | inhibition | BACTEC | H37Rv |  | 12%
CCc1nc2ccc(C)cc2n1CCCCNc1ccc(C)cc1 |  | MIC90 | turbidity / fluorescence | H37Rv | Rv1339 V90M | 0.74 µM
CC1CN(/C=N/N=C/c2ccco2)CCN1/C=N/N=C/c1ccco1 | 12.5 µg/mL | inhibition | BACTEC | H37Rv |  | 0%
O=C(Cc1csc2nc(-c3ccccc3)cn12)NN=C1CCCCC1 |  | EC50 |  | H37Rv |  | >6.25 µg/mL
CCOC(=O)c1c(NC(=O)c2c(F)c(F)c(F)c(F)c2F)sc2c1CCNC2=O |  | EC50 | turbidity | H37Rv | katG Y155 truncation mutant | 1.3 µM
COc1ccccc1NC(=O)C1=C(C)NC(C)=C(C(=O)Nc2ccccc2OC)C1c1cccc([N+](=O)[O-])c1 | 2.5 µg/mL | inhibition |  | H37Rv |  | 64%
Nc1sc(-c2ccccc2)cc1C(=O)O |  | EC50 | resazurin | H37Rv |  | 28.29 µg/mL
NNC(=O)c1ccncc1 |  | MIC |  | PR146 |  | 10 µg/mL
CC(=O)Nc1ccc(C(C2=C(O)c3ccccc3C(=O)C2=O)C2=C(O)c3ccccc3C(=O)C2=O)cc1 |  | MIC bound | BACTEC | H37Rv |  | >12.8 µg/mL
O=C(Cc1csc2nc(-c3ccc(Cl)cc3)cn12)NN=C1CCCC1 |  | EC50 |  | H37Rv |  | <6.25 µg/mL
Clc1ccc(-n2ncc(C(c3ccccc3)n3ccnc3)c2-c2ccccc2)c(Cl)c1 |  | MIC50 |  | ATCC 35822 (isoniazid-resistant) |  | 61.2 µM
Nc1ccc(O)c2c1C(=O)c1c(O)c(S(=O)(=O)O)cc(N)c1C2=O | 12.5 µg/mL | inhibition | BACTEC | H37Rv |  | 3%
COc1nc2ccc(Br)cc2cc1[C@@H](c1ccccc1)[C@@](O)(CCN(C)C)c1cccc2ccccc12 |  | MIC80 | broth dilution | 17003 | Ethambutol-resistant | <2 µM
CC1CCCC2(C1)SCC(=O)N2NC(=O)Cc1csc2nc(-c3ccc(Cl)cc3)cn12 |  | EC50 |  | H37Rv |  | >6.25 µg/mL
COc1cc(OC)c2cc([N+](=O)[O-])c3ccc(=O)oc3c2c1 |  | MIC | resazurin | MTY147 |  | 50 µg/mL
CCc1nc2ccccc2n1CCCCOc1ccc(Cl)cc1 |  | MIC90 | turbidity / fluorescence | H37Rv | QcrB M342T | >100 µM
CCC1CCC(=NNC(=O)Cc2csc3nc(-c4ccccc4)cn23)CC1 |  | EC50 |  | H37Rv |  | >6.25 µg/mL
CCc1nc2ccc(C)cc2n1CCCNc1ccc(Br)c(C)c1 |  | MIC90 | turbidity / fluorescence | H37Rv | QcrB M342T | >100 µM
Cc1cn([C@H]2C[C@@H]3[C@@H](COC(C)(C)N3O)O2)c(=O)[nH]c1=O | 12.5 µg/mL | inhibition | BACTEC | H37Rv |  | 6%
Clc1ccc(-n2ncc(C(c3ccccc3)n3ccnc3)c2-c2ccccc2Cl)c(Cl)c1 |  | MIC90 |  | ATCC 35837 (ethambutol-resistant) |  | >100 µM
CN[C@@H]1[C@H](O[C@H]2[C@H](O[C@H]3[C@H](O)[C@@H](O)[C@H](N=C(N)N)[C@@H](O)[C@@H]3N=C(N)N)O[C@@H](C)[C@]2(O)C=O)O[C@@H](CO)[C@H](O)[C@H]1O |  | MIC |  | 9106 (streptomycin isoniazid rifampin-R) |  | >1280 µg/mL
CCNC(=O)c1c(NC(=O)c2c(F)c(F)c(F)c(F)c2F)sc2c1CCN(CC)C2 |  | EC90 | turbidity | H37Rv | rpoB S522L mutant | 9.3 µM
N#Cc1nc(CC(=O)c2ccccn2)c(CC(=O)c2ccccn2)nc1C#N |  | MIC | BACTEC | H37Rv |  | ≥12.5 µg/mL
c1ccc(-c2c(C(c3ccccc3)n3ccnc3)cnn2-c2ccccc2)cc1 |  | MIC50 |  | ATCC 35837 (ethambutol-resistant) |  | 33 µM
CC(C)(C)C1=CC(C)(n2[nH]c(=O)n(-c3ccccc3)c2=O)C=C(C(C)(C)C)C1=O |  | MIC bound | resazurin | H37Rv |  | >6.25 µg/mL
CCOC(=O)c1c(NC(=O)c2c(F)c(F)c(F)c(F)c2F)sc2c1CCOC2 |  | EC50 | turbidity | ATCC 35822 |  | 0.12 µM
NNC(=O)c1ccncc1 |  | MIC |  | Isolate R0 |  | 0.031 µg/mL
CCN1CCc2c(sc(NC(=O)c3c(F)c(F)c(F)c(F)c3F)c2C(=O)NC)C1 |  | MIC | turbidity | H37Rv | rpoB S522L mutant | 4 µM
CC1CCCC2(C1)SC(C)C(=O)N2NC(=O)Cc1csc2nc(-c3ccccc3)cn12.O | 6.25 µg/mL | inhibition |  | H37Rv |  | 99%
CN[C@@H]1[C@H](O[C@H]2[C@H](O[C@H]3[C@H](O)[C@@H](O)[C@H](N=C(N)N)[C@@H](O)[C@@H]3N=C(N)N)O[C@@H](C)[C@]2(O)C=O)O[C@@H](CO)[C@H](O)[C@H]1O |  | MIC |  | MTB24 (S) |  | 0.3 µg/mL
CC1CCC2(CC1)SC(C)C(=O)N2NC(=O)Cc1csc2nc(-c3ccc(Cl)cc3)cn12 |  | MIC |  | H37Rv |  | >6.25 µg/mL
CC1COc2c(N3CCN(C)CC3)c(F)cc3c(=O)c(C(=O)O)cn1c23 |  | MIC | broth dilution | Erdman |  | 0.25 µg/mL
CCN1CCc2c(sc(NC(=O)c3c(F)c(F)c(F)c(F)c3F)c2C#N)C1 |  | EC90 | turbidity | H37Rv | gyrA mutant (D94N) | 20 µM
Clc1ccccc1C(c1ccccc1)(c1ccccc1)n1ccnc1 |  | MIC50 |  | ATCC 35822 (isoniazid-resistant) |  | ≥100 µM
Cc1cccc(C(N)=Nc2nc(-c3ccccn3)cc3ccccc23)c1 |  | MBC |  |  |  | 0.5 µg/mL
O=[N+]([O-])c1ccc(N=Nc2c(Cl)c(O)c3ccccc3c2O)nc1 |  | MIC |  | CS-R |  | >12.5 µg/mL
COc1cc2c3c(c1OC)-c1cc4c(cc1CC3N(C=O)CC2)OCO4 |  | MIC | resazurin | H37RvEr |  | >50 µg/mL
Cc1ccccc1OC/C(N)=N\NC(=O)c1ccncc1 |  | MIC50 |  | 16 isolates |  | 25 µg/mL
CC(C)(CO)[C@@H](O)C(=O)NCCC(=O)O |  | MIC bound | BACTEC | H37Rv |  | >12.5 µg/mL
NNC(=O)c1ccncc1 |  | MIC | broth dilution | INH resistant (ATCC 35820) |  | >128 µg/mL
CC(=O)Oc1ccc([C@H]2Oc3cc(OC(C)=O)cc(OC(C)=O)c3C(=O)[C@@H]2c2c(OC(C)=O)cc(OC(C)=O)c3c(=O)cc(-c4ccc(OC(C)=O)c(OC(C)=O)c4)oc23)cc1 |  | EC50 |  |  |  | >12.5 µg/mL
Cc1ccc(OC/C(N)=N\NC(=O)c2ccncc2)cc1 |  | MIC |  | ATCC 35828 (pyrazinamide-resistant) |  | 3.12 µg/mL
CSc1ccc(C2C(C(=O)Nc3ccc(C)cc3C)=C(C)NC(C)=C2C(=O)Nc2ccc(C)cc2C)cc1 |  | EC50 |  | H37Rv |  | <2.5 µg/mL
CO[C@H]1/C=C/O[C@@]2(C)Oc3c(C)c(O)c4c(O)c(c(/C=N/N5CCN(C)CC5)c(O)c4c3C2=O)NC(=O)/C(C)=C\C=C\[C@H](C)[C@H](O)[C@@H](C)[C@@H](O)[C@@H](C)[C@H](OC(C)=O)[C@@H]1C |  | MIC |  | H37Rv (capreomycin-resistant) |  | 2.5 µg/mL
CC(=O)N1C(=O)CC23c4ccccc4C(=O)N2CCCN13 |  | MIC bound | BACTEC | H37Rv |  | >12.8 µg/mL
CC1CCC(=NNC(=O)Cc2csc3nc(-c4ccccc4)cn23)CC1 | 6.25 µg/mL | inhibition |  | H37Rv |  | 40%
CC1=C(C(=O)Nc2cccc([N+](=O)[O-])c2)C(c2ccccc2O)C(C(=O)Nc2cccc([N+](=O)[O-])c2)=C(C)N1 |  | EC50 |  | H37Rv |  | <2.5 µg/mL
Clc1ncccc1-n1cccc1/C=N/N=C/c1cccn1-c1cccnc1Cl |  | MIC bound | BACTEC | H37Rv |  | >6.25 µg/mL
O=C(/C=C/c1cc2ccccc2[nH]1)c1ccncc1 | 12.5 µg/mL | inhibition |  | H37Rv |  | 12%
Oc1ccccc1/C=N/Nc1ccc2ccccc2n1 |  | MIC bound | BACTEC | H37Rv |  | >12.5 µg/mL
Fc1ccccc1-n1ncc(C(c2ccccc2)n2ccnc2)c1-c1ccccc1 |  | MIC50 |  | ATCC 27294 |  | 47 µM
COc1c2c3c(ccnc3c3ccccc13)C(=O)N2C |  | MIC bound | BACTEC | H37Rv |  | ≤12.5 µg/mL
CO[C@H]1/C=C/O[C@@]2(C)Oc3c(C)c(O)c4c(O)c(c5c(c4c3C2=O)NC2(CCN(CC(C)C)CC2)N=5)=NC(=O)/C(C)=C\C=C\[C@H](C)[C@H](O)[C@@H](C)[C@@H](O)[C@@H](C)[C@H](OC(C)=O)[C@@H]1C |  | MIC |  | TBH1-7 (rifampin-susceptible) |  | <0.5 µg/mL
NC(N)=N/N=C(\N=Nc1ccccc1)c1cccc2cccnc12 |  | MIC | BACTEC | H37Rv |  | ≥12.5 µg/mL
N#Cc1c(NC(=O)c2c(F)c(F)c(F)c(F)c2F)sc2c1CCOC2 |  | EC90 | turbidity | H37Rv | katG Y155 truncation mutant | 18 µM
Fc1ccc(-c2c(C(c3ccccc3)n3ccnc3)cnn2-c2ccc(F)cc2)cc1 |  | MIC50 |  | ATCC 35820 (streptomycin-resistant) |  | ≥100 µM
COc1ccc(-c2cc(=O)c3c(OC)cc(OC)c([C@H]4C(=O)c5c(OC)cc(OC)cc5O[C@@H]4c4ccc(OC)cc4)c3o2)cc1 |  | EC50 |  |  |  | <12.5 µg/mL
CN[C@@H]1[C@H](O[C@H]2[C@H](O[C@H]3[C@H](O)[C@@H](O)[C@H](N=C(N)N)[C@@H](O)[C@@H]3N=C(N)N)O[C@@H](C)[C@]2(O)C=O)O[C@@H](CO)[C@H](O)[C@H]1O |  | MIC90 |  | ATCC 27294 |  | 0.06 µM
CCC1CCC2(CC1)SCC(=O)N2NC(=O)Cc1csc2nc(-c3ccc(Cl)cc3)cn12 |  | MIC |  | H37Rv |  | >6.25 µg/mL
O=C1CC(SC(=S)N2CCOCC2)C(=O)N1 |  | MIC |  | EMB-R |  | 3.2 µg/mL
CCc1nc2ccccc2n1CCCCNc1ccc(OC)cc1 |  | MIC90 | turbidity / fluorescence | H37Rv | WT | 6.9 µM
O=C(CCCC(=O)N/N=C/c1ccccc1O)N/N=C/c1ccccc1O |  | MIC | BACTEC | H37Rv |  | ≥12.5 µg/mL
CC1COc2c(N3CCN(C)CC3)c(F)cc3c(=O)c(C(=O)O)cn1c23 |  | MIC80 | broth dilution | 35822 | Isoniazid-resistant | 0.7 µM
CC(C)CC(NC(=O)C(=O)N[C@@H](CC(C)C)C(=O)O)C(=O)O |  | MIC bound |  | H37Rv |  | >6.25 µg/mL
Clc1ccc(-c2c(C(c3ccccc3)n3ccnc3)cnn2-c2ccc(Cl)cc2)cc1 |  | MIC50 |  | ATCC 35822 (isoniazid-resistant) |  | ≥100 µM
N#Cc1c(N2CCN(c3ccc([N+](=O)[O-])cc3)CC2)[n+](=O)c2ccc(Cl)cc2n1[O-] |  | MIC | resazurin | H37Rv |  | ≤0.1 µg/mL
CC[C@@H](CO)NCCN[C@@H](CC)CO |  | MIC | broth dilution | H37Rv (ATCC 35811) |  | 8 µg/mL

Repeating the final 4 entries:

SMILES | tested at | read-out | method | strain or isolate | changes | value
CC(C)CC(NC(=O)C(=O)N[C@@H](CC(C)C)C(=O)O)C(=O)O |  | MIC bound |  | H37Rv |  | >6.25 µg/mL
Clc1ccc(-c2c(C(c3ccccc3)n3ccnc3)cnn2-c2ccc(Cl)cc2)cc1 |  | MIC50 |  | ATCC 35822 (isoniazid-resistant) |  | ≥100 µM
N#Cc1c(N2CCN(c3ccc([N+](=O)[O-])cc3)CC2)[n+](=O)c2ccc(Cl)cc2n1[O-] |  | MIC | resazurin | H37Rv |  | ≤0.1 µg/mL
CC[C@@H](CO)NCCN[C@@H](CC)CO |  | MIC | broth dilution | H37Rv (ATCC 35811) |  | 8 µg/mL